In article PMC4132019, “Comparative Analysis of Seven Viral Nuclear Export Signals (NESs) Reveals the Crucial Role of Nuclear Export Mediated by the Third NES Consensus Sequence of Nucleoprotein (NP) in Influenza A Virus Replication” (2014) one finds CRM1 binding (%WT) data, which are given here for four substances.

The target of the test is CRM1-HA (chromosome region maintenance 1) (human (HeLa cell cDNA)) (UniProt O14980). Nature of the test: pull-down.
Regarding “NP-NES3 Φ4 mutant NP-FLAG (L266A) (from UniProt P15682 1-498) (natural protein)”, the CRM1 binding (%WT) is 45 % of WT.
Consider “NP-NES3 Φ2 mutant NP-FLAG (L259A) (from UniProt P15682 1-498) (natural protein)”, for which the CRM1 binding (%WT) was 48.2 % of WT.
Regarding “NP-NES3 Φ1 mutant NP-FLAG (L256A) (from UniProt P15682 1-498) (natural protein)”, the CRM1 binding (%WT) was 110 % of WT.
Consider “NP-NES3 Φ3 mutant NP-FLAG (L264A) (from UniProt P15682 1-498) (natural protein)”, for which the CRM1 binding (%WT) was 39.5 % of WT.
